Experimental findings from paper PMC6753193 are described below.

Amino acid sequences for entries named in this document (tags omitted). Residues count along the entry.
UniProt P62136, 7-300: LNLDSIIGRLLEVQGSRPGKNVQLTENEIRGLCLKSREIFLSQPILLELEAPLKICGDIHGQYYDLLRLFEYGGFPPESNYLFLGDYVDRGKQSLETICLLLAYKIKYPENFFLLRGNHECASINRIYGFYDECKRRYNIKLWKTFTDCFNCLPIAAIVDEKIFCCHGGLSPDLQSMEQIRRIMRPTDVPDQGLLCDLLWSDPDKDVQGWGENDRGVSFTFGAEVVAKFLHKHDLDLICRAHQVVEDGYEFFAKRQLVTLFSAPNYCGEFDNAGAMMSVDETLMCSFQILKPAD

The target in the experiment is recombinant human PP1α (residues 7–300) (human) (UniProt P62136). The experiment is described as follows: SPR. (In general: Surface plasmon resonance follows binding to a sensor surface in real time, without labels.)

With HIPRSPYKFPSSPLRKKCCFHCQVCFITK (phosphoserine at the fifth residue, HIPR(pS)P (a single serine phosphorylated)) [pRb-Tat hybrid peptide], the Kd is 155 nM.

One may read the Kd as the free concentration of one partner at which half of the binding sites on the other are occupied at equilibrium, for simple one-to-one binding.
